Data from patent US9381175B2, “Method for treating Chikungunya virus infection” (priority 2014, dated 2016).

Test system: CHIKV
Test: Western blot of CHIKV structural protein production in BHK-21 cells
Conditions: 350 μM added at 0, 1, 2, 3 or 4 hours after infection

SMILES: Cc1ccc(C(=O)Nc2ccc(S(=O)(=O)O)c3cc(S(=O)(=O)O)cc(S(=O)(=O)O)c23)cc1NC(=O)c1cccc(NC(=O)Nc2cccc(C(=O)Nc3cc(C(=O)Nc4ccc(S(=O)(=O)O)c5cc(S(=O)(=O)O)cc(S(=O)(=O)O)c45)ccc3C)c2)c1 [suramin]
- time-of-addition: stage in which the inhibition activity takes place: 0-2 hours post infection
